Data taken from patent US20190218170A1, “BRANCHED TRIALKYLAMINE PRECURSORS, INTERMEDIATES, PRODUCTS MADE THEREFROM AND PROCESSES OF MANUFACTURE” (priority 2018, published 2019).

How the values were obtained:
[1] = Stain removal in cold water, brightness L*; details: Sebum; additive 0.05% active in wash solution of 12% LAE7 base formulation; 20° C.
[2] = Stain removal in cold water, brightness L*; details: Red lipstick; additive 0.05% active in wash solution of 12% LAE7 base formulation; 20° C.
Description: Amine oxides with linear and branched hydrophobes were compared in a screen for stain removal in cold water. Simple laundry liquid formulations were made that included only surfactants and builder.
Standard stain swatches were purchased from Testfabrics, Inc. (West Pittston, Pa.). STC/CFT PC-S-216 is diluted red lipstick on poly/cotton (65/35), and STC/CFT PC-S-132 is high discriminative sebum (synthetic) with pigment on poly/cotton, both made by Center for Testmaterials BV (CFT; The Netherlands). The swatches were pre-cut into 2 inch squares. The test formulation was diluted with DI water to 0.06% total surfactant to make the wash solution. Additives were added at a final concentration of 0.05% active in the wash solution. Stained fabric swatches were added to the wash solution, washed and rinsed at 20° C., and air-dried. The average swatch brightness (L*) for each treatment, and standard deviation, are reported for 3 replicates. […] All treatments are brighter than the untreated stain swatches. The nonionics NPE and LAE7 removed the lipstick and sebum stains to the same brightness.

CCCCC(CC)CC(C)C[N+](C)(C)[O-] (centres unmarked) [Example 65, 4-ethyl-N,N-2-trimethyloctan-1-amine oxide]
avg L* [1]: 72.7 | avg L* [2]: 76.3
